Compound potency records, mixed from different reports. Data source: NIAID ChemDB in PubChem.

All rows: tests in culture; agent: HIV-1; method: cytopathic effect; read-out: fold resistance

Blank or dashed fields: not listed here. Lines come from different laboratories, so protocols vary. Fold resistance has wild type as its base.

compound	strain	cells	mutations	result
Cc1occc1C(=S)Nc1ccc(Cl)c(/C=N/OC(C)(C)C)c1	IIIB	CEM	RT-E138K	3.13
CC(C)Nc1cccnc1N1CCN(C(=O)c2cc3cc(NS(C)(=O)=O)ccc3[nH]2)CC1	D-3 (RT-V108I M184I)	CEM	RT-V108I M184I	5
Cc1ccnc(N2C(=O)CSC2c2c(Cl)cccc2Cl)n1		CEM	RT-Y181C	137.8
Fc1cccc(F)c1C1SCc2nc3ccccc3n21		CEM	RT-K103N	11.2
Cc1ccnc2c1NC(=O)c1cccnc1N2C1CC1		CEM	RT-Y181C	69
Cc1cn([C@@H]2O[C@H](CO[Si](C)(C)C(C)(C)C)C3(OS(=O)(=O)C=C3N)[C@H]2O[Si](C)(C)C(C)(C)C)c(=O)n(C)c1=O	IIIB	CEM	RT-V179D	6.47
Cc1cn([C@H]2C[C@H](N=[N+]=[N-])[C@@H](CO)O2)c(=O)[nH]c1=O		CEM	RT-K103N	1.57
Cc1cn([C@@H]2O[C@H](CO[Si](C)(C)C(C)(C)C)C3(OS(=O)(=O)C=C3N)[C@H]2O[Si](C)(C)C(C)(C)C)c(=O)n(C)c1=O	NNRTI-resistant	CEM	RT-Y181C	>180
CC(C)=CCOc1cc(NC(=S)c2ccoc2C)ccc1Cl	IIIB	CEM	RT-V106A	2.5
O=c1[nH]cnc2c1ncn2[C@H]1CC[C@@H](CO)O1	DI-06.92 (HXB2 RT-K70R)	MT-4	RT-K70R	0.21
COc1cc(C)nc(N2C(=O)CSC2c2c(Cl)cccc2Cl)n1		CEM	RT-Y188H	151.5
CC[C@H]1C(=O)Nc2ccc(F)cc2N1C(=O)OC(C)C	NNRTI-resistant	CEM	RT-K103N	66.6
CC(C)=CCOc1cc(NC(=S)c2ccsc2C)ccc1Cl	IIIB	CEM	RT-V179D	3
Fc1cccc(F)c1C1SCc2nc3ccccc3n21		CEM	RT-E138K	1.25
CC(C)Nc1cccnc1N1CCN(C(=O)c2cc3cc(NS(C)(=O)=O)ccc3[nH]2)CC1	AJ-05.93 (HXB2(RT-L74V))	MT-4	RT-L74V	7.2
Cc1cn([C@H]2C[C@H](N=[N+]=[N-])[C@@H](CO)O2)c(=O)[nH]c1=O	B-1 (RT L100V K103R/K Y188H)	CEM	RT-L100V K103R/K Y188H	2
Cc1cc(C)nc(N2C(=O)CSC2c2c(Cl)cccc2Cl)n1		CEM	RT-E138K	1.56
Nc1ccn([C@H]2CC[C@@H](CO)O2)c(=O)n1	BI-12.96 (HXB2(RT-A62V S68G T69D V75I F77L F116Y Q151M))	MT-4	RT-A62V S68G T69D V75I F77L F116Y Q151M	>23.4

The last 2 rows once more:

compound	strain	cells	mutations	result
Cc1cc(C)nc(N2C(=O)CSC2c2c(Cl)cccc2Cl)n1		CEM	RT-E138K	1.56
Nc1ccn([C@H]2CC[C@@H](CO)O2)c(=O)n1	BI-12.96 (HXB2(RT-A62V S68G T69D V75I F77L F116Y Q151M))	MT-4	RT-A62V S68G T69D V75I F77L F116Y Q151M	>23.4